What was measured:
Experiment in all cases: β-Lactamase inhibitory activity test, nitrocefin substrate
TEM-1 = TEM-1 (Escherichia coli, UniProt P62593); details: read-out: Inhibitory activity (IC50); TEM-1, enzyme family A; 100 µM nitrocefin, 37°C, 10 minutes preincubation; tested form: Na salt
Protocol: (§1) The IC50 of β-lactamase inhibitors against β-lactamases was tested using nitrocefin as the substrate. The enzyme and serially diluted β-lactamase inhibitor were incubated in 50 mM phosphate buffer (containing 0.1 mg/mL bovine serum albumin) at 37°C for 10 minutes. The reaction was initiated by adding 100 µM nitrocefin, and the reaction temperature was set to 37°C. The absorbance at 490 nm was recorded every minute for a total of 1 hour. The initial reaction rate was calculated, and the IC50 was calculated using GraphPad Prism software. Table 4. Inhibitory activity (IC50, mg/L) of compounds against β-lactamases

Protein sequences, listed by entry. Tags and fused reporters are not part of them. Residues count along the entry.
UniProt P62593, 24-286 limits assumed: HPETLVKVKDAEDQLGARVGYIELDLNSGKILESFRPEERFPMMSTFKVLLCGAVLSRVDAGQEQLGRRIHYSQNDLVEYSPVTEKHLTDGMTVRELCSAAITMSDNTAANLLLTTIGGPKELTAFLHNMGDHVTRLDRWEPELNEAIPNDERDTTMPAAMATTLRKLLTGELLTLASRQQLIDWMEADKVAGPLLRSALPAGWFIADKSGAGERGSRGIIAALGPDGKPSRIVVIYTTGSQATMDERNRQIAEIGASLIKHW
UniProt Q9F663, 25-293 limits assumed: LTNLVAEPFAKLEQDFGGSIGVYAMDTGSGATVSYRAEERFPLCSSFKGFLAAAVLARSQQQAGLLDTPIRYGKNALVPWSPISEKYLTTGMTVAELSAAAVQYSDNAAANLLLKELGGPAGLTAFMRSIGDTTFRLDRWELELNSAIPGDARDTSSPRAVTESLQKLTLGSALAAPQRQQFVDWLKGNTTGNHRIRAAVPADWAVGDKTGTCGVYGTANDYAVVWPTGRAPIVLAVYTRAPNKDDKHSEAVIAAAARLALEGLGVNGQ
UniProt Q9L4P2, 18-273 limits assumed: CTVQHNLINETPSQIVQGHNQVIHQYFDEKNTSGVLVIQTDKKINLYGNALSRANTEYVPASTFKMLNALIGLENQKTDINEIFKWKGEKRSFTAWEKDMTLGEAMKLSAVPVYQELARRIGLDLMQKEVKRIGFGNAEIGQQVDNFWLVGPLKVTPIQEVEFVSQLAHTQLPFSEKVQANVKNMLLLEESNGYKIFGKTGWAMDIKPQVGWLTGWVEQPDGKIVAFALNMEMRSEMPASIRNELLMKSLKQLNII
UniProt P05364, 21-381 limits assumed: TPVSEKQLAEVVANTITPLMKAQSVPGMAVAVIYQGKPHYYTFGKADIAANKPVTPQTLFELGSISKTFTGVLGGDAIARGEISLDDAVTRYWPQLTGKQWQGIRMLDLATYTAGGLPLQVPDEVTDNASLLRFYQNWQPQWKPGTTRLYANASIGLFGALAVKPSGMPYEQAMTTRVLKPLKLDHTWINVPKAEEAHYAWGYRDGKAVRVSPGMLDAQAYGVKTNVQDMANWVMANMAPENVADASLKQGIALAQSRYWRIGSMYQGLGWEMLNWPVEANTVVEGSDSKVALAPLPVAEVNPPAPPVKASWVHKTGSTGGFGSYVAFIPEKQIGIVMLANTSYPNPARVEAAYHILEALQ

KPC-2 = KPC-2 (Klebsiella pneumoniae, UniProt Q9F663); type: biochemical; details: read-out: Inhibitory activity (IC50); KPC-2, enzyme family A; 100 µM nitrocefin, 37°C, 10 minutes preincubation; tested form: Na salt
Protocol: as §1

OXA-23 = OXA-23 (Acinetobacter baumannii, UniProt Q9L4P2); type: biochemical; details: read-out: Inhibitory activity (IC50); OXA-23, enzyme family D; 100 µM nitrocefin, 37°C, 10 minutes preincubation; tested form: Na salt
Protocol: as §1

AmpC = AmpC (Enterobacter cloacae, UniProt P05364); details: read-out: Inhibitory activity (IC50), enzyme family C, 100 µM nitrocefin, 37°C, 10 minutes preincubation, tested form: Na salt

`NC(=O)C1c2c(ccn2S(=O)(=O)c2cccnc2)C2CN1C(=O)N2OS(=O)(=O)O` (stereo not shown) was tested, and the IC50 (TEM-1) was less than 1000 nM, the IC50 (KPC-2) was less than 1000 nM and the IC50 (OXA-23) was 10000 to 100000 nM. For the same compound, the IC50 (AmpC) was less than 1000 nM.

Reference: patent EP4759816A1, “UREA-CONTAINING TRICYCLIC ß-LACTAMASE INHIBITOR, PREPARATION METHOD THEREFOR AND USE THEREOF” (priority 2023, dated 2025)
